Results from US7115749B2, “Substituted 5-oxo pyrazoles and [1,2,4]triazoles as antiviral agents” (priority 2004, dated 2006).
Structures were worked out from names or drawings and are uncertain.

Amino acid sequences for entries named in this document (tags omitted). A change or cut given only in a name is not applied to a line headed by its entry. Residues count along the entry.
UniProt P26663, 2420-2989 limits assumed, stated change not applied: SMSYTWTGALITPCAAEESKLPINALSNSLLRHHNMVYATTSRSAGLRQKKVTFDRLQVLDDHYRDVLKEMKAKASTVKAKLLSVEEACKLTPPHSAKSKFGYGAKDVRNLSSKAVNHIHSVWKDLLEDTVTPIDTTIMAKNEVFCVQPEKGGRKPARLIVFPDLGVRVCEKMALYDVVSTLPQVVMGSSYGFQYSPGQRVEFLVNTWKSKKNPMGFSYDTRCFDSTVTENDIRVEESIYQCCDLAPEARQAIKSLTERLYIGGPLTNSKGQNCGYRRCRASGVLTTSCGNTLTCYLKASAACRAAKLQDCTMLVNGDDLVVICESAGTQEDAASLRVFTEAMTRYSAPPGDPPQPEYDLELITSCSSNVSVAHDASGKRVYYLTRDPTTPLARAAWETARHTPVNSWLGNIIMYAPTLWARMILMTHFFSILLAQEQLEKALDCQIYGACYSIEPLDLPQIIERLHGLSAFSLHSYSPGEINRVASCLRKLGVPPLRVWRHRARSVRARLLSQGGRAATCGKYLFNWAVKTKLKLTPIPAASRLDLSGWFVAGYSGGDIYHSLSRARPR

Biological target: HCV RNA-dependent RNA polymerase NS5B (Δ21) (Hepatitis C virus genotype 1b, UniProt P26663)
Experiment: Assay for HCV RNA-dependent RNA polymerase activity (SPA, [3H]-GTP incorporation)
Type: biochemical
Settings: read-out: Δ21 Activity (IC50 μM); 50 nM NS5B (Δ21), polyC/biotinylated oligoG12, 5 μM GTP, room temperature, three hours; 11 serial 2-fold dilutions (0.05–50 μM), single experiments
Description: Assay for HCV RNA-dependent RNA Polymerase Activity
Inhibitory activity of the present compounds against HCV RNA-dependent RNA polymerase was assayed according to the methods disclosed in U.S. Patent Application U.S.2004/038993, content of which is incorporated herein by reference; and those described in Ferrari, E.; Wright-Minogue, J.; Fang, J. W. S.; Baroudy, B. M.; Lau, J. Y. N.; Hong, Z. J. Virol. 1999, 73, 1649.
Briefly, 50 μl reactions containing 20 mM HEPES (pH 7.3), 7.5 mM DTT, 20 units/ml RNasIN, 0.5 ug/ml biotinylated oligoG12, 5 μg/ml polyC, 5 μM GTP, 20 μCi/ml [^3H]-GTP, 10 mM MgCl2, 60 mM NaCl, 100 μg/ml BSA, and 50 nM NS5B (Δ21) were incubated at room temperature for three hours in 96-well plates with or without test compounds. Assay was terminated by the addition of 50 μl 10 mg/ml streptavidin-coated SPA beads supplemented with 100 mM EDTA, and the incorporation of labeled GTP determined by a TopCount Scintillation Counter. IC50 values were calculated from single experiments using 11 serial 2-fold dilutions (0.05–50 μM), and data were considered reliable only when the IC50 value of a positive internal control was within standard deviation range.

O=C(Cn1nc(C(=O)O)cc1OCc1ccccc1-c1ccc(C(F)(F)F)cc1)N[C@H]1CCCC[C@@H]1OCc1ccccc1
IC50: 0.057 µM
